Data on nine compounds can be found in patent US10117871B2, “3-hydroxypyrimidine-2,4-dione-5-carboxamides as potent inhibitors of HIV” (Regents of the University of Minnesota, priority 2015, dated 2018).

Molecules are shown by their SMILES.

The subject of this series is HIV-1IIIB. The series can be described thus: HIV-1 cytoprotection (CPE reduction) antiviral assay. It counts as cell-based. The following applies: Therapeutic index, defined by CC50/EC50. How it is done:
The antiviral activity of newly synthesized analogues of chemotype 7 was evaluated against HIV-1IIIB in CEM-SS cells using an assay based on viral cytopathic effect (CPE). In this assay, the reduction of CPE was used to indicate the antiviral activity of a compound.
Briefly virus and cells were mixed in the presence of test compound and incubated for 6 days. […] Each assay plate contained cell control wells (cells only), virus control wells (cells plus virus), compound toxicity control wells (cells plus compound only), compound colorimetric control wells (compound only) as well as experimental wells (compound plus cells plus virus). Cytoprotection and compound cytotoxicity were assessed by MTS (CellTiter® 96 Reagent, Promega, Madison Wis.) and the EC50 (concentration inhibiting virus replication by 50%), CC50 (concentration resulting in 50% cell death) and a calculated TI (therapeutic index CC50/EC50) were provided. Each assay included AZT as a positive control.
Turning to `CCNc1[nH]c(=O)n(O)c(=O)c1C(=O)NCc1ccc(C)c(F)c1` [Compound 7-xxiv, N-(3-Fluoro-4-methylbenzyl)-1-(hydroxy)-4-(ethylamino)-1,2,3,6-tetrahydro-2,6-dioxopyrimidine-5-carboxamide], the TI turned out to be 130. The same measure for `CCNc1[nH]c(=O)n(O)c(=O)c1C(=O)NCc1ccc(F)cc1` [Compound 7-xvi, N-(4-Fluorobenzyl)-1-(hydroxy)-4-(ethylamino)-1,2,3,6-tetrahydro-2,6-dioxopyrimidine-5-carboxamide]: 580; for `CCNc1[nH]c(=O)n(O)c(=O)c1C(=O)NCc1ccc(F)c(F)c1` [Compound 7-xx, N-(3,4-Difluorobenzyl)-1-(hydroxy)-4-(ethylamino)-1,2,3,6-tetrahydro-2,6-dioxopyrimidine-5-carboxamide]: 430.

For `CCNc1[nH]c(=O)n(O)c(=O)c1C(=O)NCc1ccccc1` [Compound 7-vi, N-Benzyl-1-(hydroxy)-4-(ethylamino)-1,2,3,6-tetrahydro-2,6-dioxopyrimidine-5-carboxamide], the TI was 380. The compound `CCNc1[nH]c(=O)n(O)c(=O)c1C(=O)NCc1ccc(Cl)c(F)c1` [Compound 7-xxii, N-(4-Chloro-3-fluorobenzyl)-1-(hydroxy)-4-(ethylamino)-1,2,3,6-tetrahydro-2,6-dioxopyrimidine-5-carboxamide] came in with a TI of 100.

On to `Cc1cn([C@H]2C[C@H](N=[N+]=[N-])[C@@H](CO)O2)c(=O)[nH]c1=O` [AZT, reference compound], for which the TI is >130.

Compound `CNc1[nH]c(=O)n(O)c(=O)c1C(=O)NCc1ccccc1` [Compound 7-v, N-Benzyl-1-(hydroxy)-1,2,3,6-tetrahydro-4-(methylamino)-2,6 dioxopyrimidine-5-carboxamide] gave a TI of 70. `CCNc1[nH]c(=O)n(O)c(=O)c1C(=O)NCc1cc(F)ccc1F` [Compound 7-xvii, N-(2,5-Difluorobenzyl)-1-(hydroxy)-4-(ethylamino)-1,2,3,6-tetrahydro-2,6-dioxopyrimidine-5-carboxamide] came in with a TI of 1500. `CCNc1[nH]c(=O)n(O)c(=O)c1C(=O)NCc1cccc(Cl)c1F` [Compound 7-xxiii, N-(3-Chloro-2-fluorobenzyl)-1-(hydroxy)-4-(ethylamino)-1,2,3,6-tetrahydro-2,6-dioxopyrimidine-5-carboxamide] displayed a TI of 1200.
